Pooled drug test results. Numbers come from NIAID ChemDB, via PubChem.

Shared fields: tests in culture; organism: Human cytomegalovirus; read by: plaque count; read-out: EC50

Neighbouring rows are from separate reports. ECn: concentration that inhibits the pathogen or its effect by n%. Blank or dashed fields: not listed here.

{"smiles": "OC[C@H]1O[C@H](c2c(Cl)c(Cl)cc3nc(Cl)cn23)[C@H](O)[C@@H]1O", "result": ">100 µM"}
{"smiles": "Nc1nc2c(ncn2/C=C2/C[C@@H]2CO)c(=O)[nH]1", "cell line": "HFF", "strain or isolate": "AD169", "result": "2.6 µM"}
{"smiles": "CCc1cn([C@@H]2O[C@H](CO)[C@@H](O)[C@@H]2O)c(=S)[nH]c1=O", "cell line": "MRC-5", "strain or isolate": "AD169", "result": ">213 µM"}
{"smiles": "OCC(O)COCc1c(Cl)nc2cc(Cl)c(Cl)cn12", "cell line": "HFF", "strain or isolate": "TOWNE", "result": ">100 µM"}
{"smiles": "Cc1cn([C@H]2C[C@H](O)[C@@H](CO)O2)c(=S)nc1N", "cell line": "MRC-5", "strain or isolate": "93-1R", "result": ">277.4 µM"}
{"smiles": "Cn1cc(C(=O)O)c(=O)c2cc(N)c(N3CCN(c4nccs4)CC3)cc21", "cell line": "HEL", "strain or isolate": "DAVIS", "result": "1.45 µg/mL"}
{"smiles": "Nc1nc2c(ncn2COC[C@H](O)CO)c(=O)[nH]1", "cell line": "MRC-5", "strain or isolate": "AD169", "result": ">25 µg/mL"}
{"smiles": "C[C@H]1[C@H](O)[C@@H](CO)O[C@H]1n1cc(Br)c(=O)[nH]c1=O", "cell line": "MRC-5", "strain or isolate": "AD169", "result": ">100 µg/mL"}
{"smiles": "O[C@@H]1[C@H](O)[C@H](O)CO[C@H]1n1c(Br)nc2cc(Cl)c(Cl)cc21", "cell line": "MRC-5", "strain or isolate": "2916RA (L397R)", "result": "1.7 µM"}
{"smiles": "CC1(C)OC2C(O1)[C@H](c1c(Cl)ccc3nc(Cl)cn13)O[C@@H]2CO", "result": ">100 µM"}
{"smiles": "O=C(NCc1ccc(Cl)cc1)c1cn2c3c(cc(CN4CCOCC4)cc3c1=O)OC(c1cccnc1)C2", "cell line": "HFF", "strain or isolate": "C8706/13-1-1 (ganciclovir-resistant)", "result": "1.1 µM"}
{"smiles": "C[C@H]1[C@H](O)[C@@H](CO)O[C@H]1n1cc(Br)c(N)nc1=O", "cell line": "MRC-5", "strain or isolate": "AD169", "result": ">100 µg/mL"}
{"smiles": "Nc1ccn(C[C@@H](CO)OCP(=O)(O)O)c(=O)n1", "cell line": "HS68", "strain or isolate": "AD169", "result": "0.02 µg/mL"}
{"smiles": "CC(C)Nc1nc2cc(Cl)c(Cl)cc2n1[C@H]1O[C@@H](CO)[C@H](O)[C@@H]1O", "cell line": "MRC-5", "strain or isolate": "C8301", "result": "0.12 µM"}
{"smiles": "O=C(COc1cccc2ccccc12)NN=CCc1ccccc1", "cell line": "HEL", "strain or isolate": "AD169", "result": ">20 µg/mL"}
{"smiles": "CN1N=C(N)c2cn([C@@H]3O[C@H](CO)[C@@H](O)[C@H]3O)c3nc(Cl)nc1c23", "cell line": "HFF", "result": "100 µM"}
{"smiles": "Cn1cc(C(=O)NCc2ccc(Cl)cc2)c(=O)c2cc(CN3CCOCC3)ccc21", "cell line": "HFF", "strain or isolate": "HA", "result": "1 µM"}
{"smiles": "CC(C)NS(=O)(=O)c1ccccc1-c1n[nH]c(=S)o1", "cell line": "HEL", "strain or isolate": "DAVIS", "result": ">100 µM"}
{"smiles": "Nc1nc(NC2CCCCC2)c2ncn(/C=C3/C[C@@H]3CO)c2n1", "cell line": "HFF", "strain or isolate": "AD169", "result": ">318 µM"}
{"smiles": "Nc1nc(=O)n([C@@H]2O[C@H](CO)[C@@H](O)[C@@H]2F)cc1I", "cell line": "MRC-5", "strain or isolate": "AD169", "result": "0.8 µg/mL"}
{"smiles": "OC[C@H]1O[C@@H](c2cccc3nccn23)[C@H](O)[C@@H]1O", "result": ">100 µM"}
{"smiles": "CCc1nc2c3c(cn([C@@H]4O[C@H](CO)[C@@H](O)[C@H]4O)c3n1)C(N)=NN2C", "cell line": "HFF", "result": ">100 µM"}
{"smiles": "Cn1cc(C(=O)NCc2ccc(Cl)cc2)c(=O)c2cc(CN3CCOCC3)ccc21", "cell line": "HFF", "strain or isolate": "AD169", "result": "0.8 µM"}
{"smiles": "C=Cc1cn([C@H]2C[C@H](O)[C@@H](CO)O2)c(=S)[nH]c1=O", "cell line": "MRC-5", "strain or isolate": "T-137", "result": ">277.6 µM"}
{"smiles": "OC[C@H]1O[C@@H](n2c(Cl)nc3cc(Cl)c(Cl)cc32)[C@H](O)[C@@H]1O", "result": "0.7 µM"}
{"smiles": "OC[C@H]1O[C@@H](n2c(Br)nc3cc(Cl)c(Cl)cc32)[C@H](O)[C@@H]1O", "cell line": "HFF", "strain or isolate": "Isolate Helebrand (resistant)", "result": "2.03 µM"}
{"smiles": "CSc1nc2cc(Cl)c(Cl)cc2n1[C@H]1C[C@H](O)[C@@H](CO)O1", "cell line": "HFF", "strain or isolate": "TOWNE", "result": ">100 µM"}
{"smiles": "O=C(NCCc1ccccc1)C1=Cc2ccncc2CC1", "cell line": "HFF", "strain or isolate": "D-10 C4", "result": "11.2 µM"}
{"smiles": "OC[C@H]1O[C@@H](n2c(Br)nc3cc(Cl)c(Cl)cc32)[C@H](O)[C@@H]1O", "cell line": "HFF", "strain or isolate": "TOWNE", "result": "0.37 µg/mL"}
{"smiles": "Nc1nc2c(ncn2COC(CO)CO)c(=O)[nH]1", "cell line": "MRC-5", "strain or isolate": "C9213", "result": "7 µM"}
{"smiles": "OC[C@H]1O[C@@H](n2c(=S)[nH]c3cc(Cl)c(Cl)cc32)C[C@@H]1O", "cell line": "HFF", "strain or isolate": "TOWNE", "result": ">100 µM"}
{"smiles": "NC(=S)c1cn(COCCO)c2ncnc(N)c12", "cell line": "HFF", "result": "7 µM"}
{"smiles": "Nc1nc2c(ncn2COC(CO)CO)c(=O)[nH]1", "cell line": "HFF", "strain or isolate": "AD169", "result": "3.8 µM"}
{"smiles": "C/C(=N/Nc1nc(-c2ccccc2)cs1)c1ccc(NC(=O)CN2C(=O)c3ccccc3S2(=O)=O)cc1", "cell line": "HEL", "strain or isolate": "DAVIS", "result": "20 µM"}
{"smiles": "C=CCNc1nc(N)nc2c1ncn2/C=C1/C[C@@H]1CO", "cell line": "HFF", "result": "2.8 µM"}
{"smiles": "Cn1cc(C(=O)O)c(=O)c2cc(N)c(N3CCN(c4cccc(C(F)(F)F)c4)CC3)cc21", "cell line": "HEL", "strain or isolate": "DAVIS", "result": "0.86 µg/mL"}
{"smiles": "Nc1nc2c(ncn2/C=C2/CC2(CO)CO)c(=O)[nH]1", "cell line": "HFF", "strain or isolate": "TOWNE", "result": "2.4 µM"}
{"smiles": "CCCOc1nc(N)nc2c1ncn2/C=C1/C[C@@H]1CO", "cell line": "HFF", "result": "2 µM"}
{"smiles": "CC(C)Oc1ccccc1CNC(=O)c1ccc2cnccc2n1", "cell line": "HFF", "strain or isolate": "D-10 C4", "result": "0.04 µM"}
{"smiles": "Nc1nc2c(ncn2COC(CO)CO)c(=O)[nH]1", "cell line": "HELF", "strain or isolate": "DAVIS", "result": "7.4 µM"}
{"smiles": "CC1(C)OC2C(O1)[C@H](c1c(Cl)c(Cl)cc3nc(Cl)cn13)O[C@@H]2CO[Si](C)(C)C(C)(C)C", "result": ">100 µM"}
{"smiles": "CC(O)c1cn([C@@H]2O[C@H](CO)[C@@H](O)[C@@H]2O)c(=S)[nH]c1=O", "cell line": "MRC-5", "strain or isolate": "T-137", "result": ">213 µM"}
{"smiles": "COc1ccccc1CNC(=O)C1=Cc2ccncc2CC1", "cell line": "HFF", "strain or isolate": "TOWNE", "result": "9.04 µM"}
{"smiles": "OC[C@H]1O[C@@H](n2cnc3cc(Cl)c(Cl)cc32)C[C@@H]1O", "cell line": "HFF", "strain or isolate": "TOWNE", "result": ">100 µM"}
{"smiles": "CCSCc1c(Cl)nc2cc(Cl)c(Cl)cn12", "cell line": "HFF", "strain or isolate": "TOWNE", "result": ">100 µM"}
{"smiles": "CCCc1cn([C@H]2C[C@H](O)[C@@H](CO)O2)c(=S)nc1N", "cell line": "MRC-5", "strain or isolate": "93-1R", "result": ">277.4 µM"}
{"smiles": "OC[C@H]1O[C@@H](n2c(Cl)nc3cc4cc(Cl)c(Cl)cc4cc32)[C@H](O)[C@@H]1O", "result": "16 µM"}
{"smiles": "C=CCOCc1c(Cl)nc2ccc(Cl)cn12", "cell line": "HFF", "strain or isolate": "TOWNE", "result": "18 µM"}
{"smiles": "Cn1cc(C(=O)NCc2ccc(Cl)cc2)c(=O)c2cc(CN3CCOCC3)ccc21", "strain or isolate": "9 isolates", "result": "0.94 µM"}
{"smiles": "Nc1ccn(C[C@@H](CO)OCP(=O)(O)O)c(=O)n1", "cell line": "HFF", "strain or isolate": "Isolate Helebrand (wild type)", "result": "0.81 µM"}
{"smiles": "Cc1cncc2ccc(C(=O)NCc3ccccc3OC(C)C)nc12", "cell line": "MRC-5", "strain or isolate": "D16 (ganciclovir-resistant UL54 mutant)", "result": "0.1 µg/mL"}
{"smiles": "CSc1nnc(-c2ccccc2S(=O)(=O)NC(C)C)o1", "cell line": "HEL", "strain or isolate": "AD169", "result": ">100 µM"}
{"smiles": "Nc1nc2c(ncn2COC(CO)CO)c(=O)[nH]1", "strain or isolate": "VR4991 (ganciclovir-resistant)", "result": "25 µM"}
{"smiles": "CN1N=C(N)c2cn([C@@H]3O[C@H](CO)[C@@H](O)[C@H]3O)c3nc(N)nc1c23", "cell line": "HFF", "result": ">100 µM"}
{"smiles": "C/C(=N/Nc1nc(-c2ccc(Br)cc2)cs1)c1ccc(NC(=O)CN2C(=O)c3ccccc3S2(=O)=O)cc1", "cell line": "HEL", "strain or isolate": "AD169", "result": "20 µM"}
{"smiles": "NC1=NCCN1CC(=O)O", "cell line": "MRC-5", "strain or isolate": "AD169", "result": "2300 µM"}
{"smiles": "C=C1[C@H](CO)[C@@H](O)C[C@@H]1n1cnc2c(=O)[nH]c(N)nc21", "cell line": "WI-38", "result": "80 µM"}
{"smiles": "Cn1cc(C(=O)NCc2ccc(Cl)cc2)c(=O)c2cc(CN3CCOCC3)ccc21", "cell line": "HFF", "strain or isolate": "AD169", "result": "6.4 µM"}
{"smiles": "COc1nc(N)nc2c1ncn2/C=C1/C[C@@H]1CO", "cell line": "HFF", "strain or isolate": "AD169", "result": "2 µM"}
{"smiles": "Cc1cn([C@@H]2O[C@H](CO)[C@H]2CO)c(=O)[nH]c1=O", "cell line": "HFF", "strain or isolate": "AD169", "result": ">100 µg/mL"}
{"smiles": "OC[C@H]1O[C@@H](c2c(Cl)ccc3nc(Cl)cn23)[C@H](O)[C@@H]1O", "result": ">100 µM"}
{"smiles": "Nc1nc(NC2CC2)c2ncn(/C=C3/C[C@@H]3CO)c2n1", "cell line": "HFF", "result": "1.9 µM"}
{"smiles": "Cn1cc(C(=O)NCc2ccc(Cl)cc2)c(=O)c2cc(CN3CCOCC3)ccc21", "cell line": "VERO", "strain or isolate": "AD169", "result": "0.4 µM"}
{"smiles": "Nc1nc2c(ncn2COC(CO)CO)c(=O)[nH]1", "cell line": "HFF", "strain or isolate": "AD169", "result": "0.9 µM"}
{"smiles": "CN(C)c1cccc2c(S(=O)(=O)Nc3ccc(NC(=O)C(C)(C)CO)cc3)cccc12", "cell line": "HFF", "strain or isolate": "Isolate Helebrand (resistant)", "result": "36.32 µM"}
{"smiles": "Nc1nc2c(ncn2COC(CO)CO)c(=O)[nH]1", "strain or isolate": "TOWNE", "result": "10.8 µM"}
{"smiles": "Nc1nc(NCC2CC2)c2ncn(/C=C3/C[C@@H]3CO)c2n1", "cell line": "HFF", "strain or isolate": "AD169", "result": "52 µM"}
{"smiles": "Nc1cc2c(=O)c(C(=O)O)cn(C3CC3)c2cc1N1CCN(c2cccc(C(F)(F)F)c2)CC1", "cell line": "HEL", "strain or isolate": "DAVIS", "result": "0.82 µg/mL"}
{"smiles": "CCCOc1nc(N)nc2c1ncn2/C=C1/C[C@@H]1CO", "cell line": "HFF", "strain or isolate": "AD169", "result": "2 µM"}
{"smiles": "COc1cccc(N2CCN(C3=Nc4c(F)cccc4[C@H](CC(=O)O)N3c3cc(C(F)(F)F)ccc3OC)CC2)c1", "strain or isolate": "Clinical isolate 9", "result": "0.0008 µM"}
{"smiles": "O=c1[nH]c(=S)n([C@@H]2O[C@H](CO)[C@@H](O)[C@@H]2O)cc1/C=C/c1ccccc1", "cell line": "MRC-5", "strain or isolate": "AD169", "result": ">213 µM"}
{"smiles": "OCCSCc1c(Cl)nc2ccc(Cl)cn12", "cell line": "HFF", "strain or isolate": "TOWNE", "result": ">100 µM"}
{"smiles": "OC[C@H]1O[C@@H](n2c(SCc3ccccc3)nc3cc(Cl)c(Cl)cc32)C[C@@H]1O", "cell line": "HFF", "strain or isolate": "TOWNE", "result": ">100 µM"}
{"smiles": "CCCc1cn([C@H]2C[C@H](O)[C@@H](CO)O2)c(=S)[nH]c1=O", "cell line": "MRC-5", "strain or isolate": "93-1R", "result": ">277.6 µM"}

The last 8 rows once more:

| smiles | cell line | strain or isolate | result |
|---|---|---|---|
| Nc1nc(NCC2CC2)c2ncn(/C=C3/C[C@@H]3CO)c2n1 | HFF | AD169 | 52 µM |
| Nc1cc2c(=O)c(C(=O)O)cn(C3CC3)c2cc1N1CCN(c2cccc(C(F)(F)F)c2)CC1 | HEL | DAVIS | 0.82 µg/mL |
| CCCOc1nc(N)nc2c1ncn2/C=C1/C[C@@H]1CO | HFF | AD169 | 2 µM |
| COc1cccc(N2CCN(C3=Nc4c(F)cccc4[C@H](CC(=O)O)N3c3cc(C(F)(F)F)ccc3OC)CC2)c1 | - | Clinical isolate 9 | 0.0008 µM |
| O=c1[nH]c(=S)n([C@@H]2O[C@H](CO)[C@@H](O)[C@@H]2O)cc1/C=C/c1ccccc1 | MRC-5 | AD169 | >213 µM |
| OCCSCc1c(Cl)nc2ccc(Cl)cn12 | HFF | TOWNE | >100 µM |
| OC[C@H]1O[C@@H](n2c(SCc3ccccc3)nc3cc(Cl)c(Cl)cc32)C[C@@H]1O | HFF | TOWNE | >100 µM |
| CCCc1cn([C@H]2C[C@H](O)[C@@H](CO)O2)c(=S)[nH]c1=O | MRC-5 | 93-1R | >277.6 µM |